A mixed list of measured activities; the numbers were collected in NIAID ChemDB.

Common to all: tests in culture; agent: HIV-1; cell line: MT-4; measure: EC50

Conditions beyond the fields shown may differ between rows. ECn is the concentration giving n% inhibition of infection, replication or growth. Two numbers with a dash give a range or band. An empty or dashed field is not shown.

| SMILES | strain | mutations | read by | result |
|---|---|---|---|---|
| CC(C)c1c(C(C)c2ccc(F)cc2)n(COCc2ccccc2)c(=O)[nH]c1=O | IIIB | Y181C | MTT | >33.73 µM |
| Cc1cn([C@@H]2O[C@H](CO)C[C@@H]2F)c(=O)[nH]c1=O | IIIB |  |  | >500 µM |
| COc1ccc(/C=C/C(=O)c2ccc(OC)cc2O)cc1 | IIIB |  | MTT | >400 µM |
| c1ccc(-c2oncc2C(c2ccccc2)n2ccnc2)cc1 | IIIB |  | cytopathic effect / MTT | >76 µM |
| Cc1cccc(C(C)c2c(C(C)C)c(=O)[nH]c(=O)n2COCc2ccccc2)c1 | IIIB | F227L + V106A | MTT | 5.45 µM |
| CC(=O)Nc1cnc(Oc2c(Cl)cccc2Cl)nc1Nc1ccc(C#N)cc1 | RES056 |  | MTT | >193 µM |
| Nc1ccn([C@H]2CC[C@@H](CO)O2)c(=O)n1 | IIIB |  | MTT | 1.113 µM |
| CC1(C)CC=C(c2cn(-c3nccc(C(=O)NC4CCC(N5CC6CCC(C5)O6)CC4)n3)c3ccc(F)c([C@H](OC(C)(C)C)C(=O)O)c23)CC1 | NL4-3 | A128T | luminescence | 0.019 µM |
| Cc1cn([C@@H]2O[C@H](COC(=S)N(C)C)C3(OS(=O)(=O)C=C3N)[C@H]2O[Si](C)(C)C(C)(C)C)c(=O)n(C)c1=O |  |  |  | >10 µM |
| Cc1cc(C#N)cc(C)c1Oc1ncc(N)c(Nc2ccc(C#N)cc2)n1 | IIIB |  | MTT | 0.002 µM |
| Cc1cn([C@H]2C[C@H](N=[N+]=[N-])[C@@H](CP(=O)(O)O)O2)c(N)nc1=O | IIIB |  | cytopathic effect | >128 µg/mL |
| C=C(c1cc(OC)cc(OC)c1)c1c(C)c(=O)[nH]c(=O)n1COCc1ccccc1 | IIIB |  | MTT | 5.27 µM |
| c1ccc(COC2C3COC(O3)C(OCc3ccccc3)C2OCc2ccccc2)cc1 |  |  | MTT | 2.14 µg/mL |
| CCOCn1c(Cc2cccc(C(F)(F)F)c2)c(C(C)C)c(=O)[nH]c1=O | EFV-resistant (K103R V179D P225H) |  | MTT | >54 µM |
| Cc1cc(C#N)cc(C)c1Oc1nc(Nc2ccc(C#N)cc2)ncc1SCC(=O)Nc1ccc(S(C)(=O)=O)cc1 |  | F227L V106A | MTT | 0.3592 µM |
| CC(C)=CCOC[C@H]1O[C@@H](n2cc(C)c(=O)n(C)c2=O)[C@H](O[Si](C)(C)C(C)(C)C)C12OS(=O)(=O)C=C2N |  |  |  | 6.46 ± 2.19 µM |
| O=C(CSc1nc2ccccc2[nH]1)Nc1cc(F)ccc1F | IIIB |  | p24 / ELISA / antigen | 1.25 µM |
| CC(=O)OC[C@H]1O[C@@H](n2cc(C)c(=O)n(C)c2=O)[C@H](O[Si](C)(C)C(C)(C)C)C12OS(=O)(=O)C=C2N |  |  |  | >50 µM |
| Cc1ncc(C(c2ccccc2)n2cncn2)c(-c2ccccc2)n1 | IIIB |  | cytopathic effect / MTT | >200 µM |
| Cc1cn([C@@H]2O[C@H](CN3CCN(C)CC3)C3(OS(=O)(=O)C=C3N)[C@H]2O[Si](C)(C)C(C)(C)C)c(=O)n(C)c1=O |  |  |  | >50 µM |
| Cc1cc(C=O)cc(C)c1Oc1ncc(N)c(Nc2ccc(C#N)cc2)n1 | IIIB |  | MTT | 0.066 µM |
| Cc1nc2ccccc2c(-c2cc(F)c3c(c2C)CCCO3)c1[C@H](OC(C)(C)C)C(=O)O | NL4-3 | H171T | luminescence | 1.91 µM |
| Cc1cn([C@H]2C[C@H](N=[N+]=[N-])[C@@H](CO)O2)c(=O)[nH]c1=O | IIIB |  | MTT | 0.026 µM |
| C#CCNC(=O)CSc1cnc(Nc2ccc(C#N)cc2)nc1Oc1c(C)cc(C#N)cc1C |  | K103N | MTT | 0.0016 µM |
| O=C(CSc1nc2ccccc2[nH]1)Nc1ccccc1 | IIIB |  | p24 / ELISA / antigen | 5.07 µM |
| Cc1cc(C#N)cc(C)c1Oc1nc(Nc2ccc(C#N)cc2)ncc1SCC(=O)NCc1ccc(O)cc1 |  | RES056 | MTT | 0.3858 µM |
| NOCc1cccc(Cl)c1Cl | IIIB |  | cytopathic effect / MTT | 8.99 µg/mL |
| C=CCOCn1c(Cc2c(F)c(F)cc(F)c2F)c(CC)c(=O)[nH]c1=O | N119 (Y181C) |  | MTT | 40 µM |
| Cc1cccc(C(C)(O)c2c(C)c(=O)[nH]c(=O)n2COCc2ccccc2)c1 | IIIB |  | MTT | 37.48 µM |
| CN(C)c1ncc(C(c2ccccc2)n2ccnc2)c(-c2ccccc2)n1 | IIIB |  | cytopathic effect / MTT | >58.7 µM |
| O=C(CSc1ccccn1)Nc1cc(F)ccc1F | IIIB |  | p24 / ELISA / antigen | >100 µM |
| N#Cc1ccc(Nc2nc(Oc3c(Cl)cccc3Cl)ncc2N)cc1 | IIIB |  | MTT | 0.023 µM |
| C=CCNC(=O)CSc1cnc(Nc2ccc(C#N)cc2)nc1Oc1c(C)cc(C#N)cc1C |  | K103N | MTT | 0.0025 µM |
| Cc1cn([C@@H]2O[C@H](COC(=O)N(C)C)C3(OS(=O)(=O)C=C3N)[C@H]2O[Si](C)(C)C(C)(C)C)c(=O)n(C)c1=O |  |  |  | >50 µM |
| N#Cc1ccc(Nc2nc(Oc3c(Br)cc(Br)cc3Br)ncc2N)cc1 | RES056 |  | MTT | 4.9 µM |
| Cc1cn([C@H]2C=C(F)[C@@H](CO)O2)c(=O)[nH]c1=O | IIIB |  |  | 10–50 µM |
| Cc1ccc(C(C)c2c(C(C)C)c(=O)[nH]c(=O)n2COCc2ccccc2)cc1 | IIIB |  | MTT | 10.7 µM |
| Cc1cc(C#N)cc(C)c1Oc1nc(Nc2ccc(C#N)cc2)ncc1SCC(=O)NC1CCN(C(=O)OC(C)(C)C)CC1 |  | K103N | MTT | 0.01 µM |
| Nc1ccn([C@@H]2O[C@H](CO)[C@@H](F)[C@@H]2F)c(=O)n1 | IIIB |  |  | >500 µM |
| CC(=O)Nc1cnc(Oc2c(C)cc(C#N)cc2C)nc1Nc1ccc(C#N)cc1 | IIIB |  | MTT | 1.8 µM |
| CCC(c1ccccc1OC)c1c(C)c(=O)[nH]c(=O)n1COCc1ccccc1 | IIIB |  | MTT | >32.35 µM |
| COc1ncc(C(c2ccccc2)n2ccnc2)c(-c2ccccc2)n1 | IIIB |  | cytopathic effect / MTT | >177.5 µM |
| NOCc1c(F)cccc1Cl | IIIB |  | cytopathic effect / MTT | 1.58 µg/mL |
| C=C(c1ccccc1)c1c(C)c(=O)[nH]c(=O)n1COCc1ccccc1 | IIIB | L100I | MTT | 31.3 µM |
| Cc1cc(C#N)cc(C)c1Oc1nc(Nc2ccc(C#N)cc2)ncc1SCC(=O)NCCN1CCN(C(=O)OC(C)(C)C)CC1 |  | Y188L | MTT | 0.2264 µM |
| COc1ccc(/C=C/C(=O)c2ccccc2O)cc1 | IIIB |  | MTT | >400 µM |
| Cc1cc(C#N)cc(C)c1Oc1nc(Nc2ccc(C#N)cc2)ncc1SCC(=O)NC1CC1 |  | F227L V106A | MTT | 0.106 µM |
| Nc1nnc(SCC(=O)Nc2cc(C(F)(F)F)cc(C(F)(F)F)c2)s1 | IIIB |  | p24 / ELISA / antigen | 14.93 µM |
| Cc1cc(C#N)cc(C)c1Oc1nc(Nc2ccc(C#N)cc2)ncc1SCC(=O)NCC1CCCO1 | IIIB |  | MTT | 0.0076 µM |
| COc1ccc(/C=C/C(=O)c2ccc(OC)cc2OC)cc1 | IIIB |  | MTT | >400 µM |
| C/C=C/C(=O)O[C@H]1CC[C@]23C[C@]24CC[C@]25CO[C@@]6(C(C)(C)O)CC[C@](C)(O6)C2[C@@H](OC(C)=O)[C@@H](OC(C)=O)[C@@]5(C)C4CC[C@H]3C1(C)C | NL4-3 |  | luciferase | <5 µM |
| C=CCOCn1c(Cc2cccc(F)c2)c(CC)c(=O)[nH]c1=O |  |  | MTT | 0.03 µM |
| NOCc1cc(Cl)ccc1Cl | IIIB |  | cytopathic effect / MTT | 7.96 µg/mL |
| CCCCOP(=O)(CN[C@@H](Cc1ccccc1)[C@H](O)CN(CC(C)C)S(=O)(=O)c1ccc(OC)cc1)OCCCC | RES056 |  | MTT | >13.08 µg/mL |
| COc1ccc(/C=C/C(=O)c2ccc(OC)cc2)cc1 | IIIB |  | MTT | >400 µM |
| CCOCn1c(Cc2cccc(C(F)(F)F)c2)c(CC)c(=O)[nH]c1=O | N119 (Y181C) |  | MTT | 4.5 µM |
| CC(=O)Nc1cnc(Oc2c(C)cc(C)cc2C)nc1Nc1ccc(C#N)cc1 | RES056 |  | MTT | >322 µM |
| NOCc1ccccc1F | IIIB |  | cytopathic effect / MTT | 8.15 µg/mL |
| CCOCn1c(Cc2c(F)c(F)cc(F)c2F)c(CC)c(=O)[nH]c1=O | N119 (Y181C) |  | MTT | 23 µM |